Results as given in the supplement of paper PMC9931576.
Human monoclonal antibodies against the spike receptor-binding domain (heavy:light variable regions). IC50 against pseudoviruses bearing the spike of naturally observed variants; lower = stronger; >10 µg/ml means not reached at the top dose. No active / inactive call. The stated detection limit is 0.0005 µg/ml; values near or below 0.001 µg/ml lie at the floor of the assay.

B1: BD56-1815 (protein)
chain 1: EMQLVQSGPEVKKPGTSVKVSCKASGFTFDISAVQWVRQARGQRLEWIGWIAPGGGETDYARMFQERVSITRDMSTSTAYMELSSLRSEDTAVYFCAAPHCNRTSCYDGFDIWGQGTVVTVSS
chain 2: EIVLTQSPGTLSLSPGERATLSCRASQSVRSSHLAWYQQKPGQAPRLLIYGASSRATGIPDRFSGSGSGTDFTLTISRLEPEDFAVYYCQQYGNSLWTFGQGTKVEIK
B2: BD-449 (protein)
chain 1: QVQLVESGGGVVQPGRSLRLSCVASGFTFSNYDMHWVRQAPGKGLEWVTVISSDGNNRRYADSVKGRFTISRDNSKNMLYLQMNSLKAEDTAVYYCARDEVIAVATGEGMDVWGQGTTVTVS
chain 2: EIVMTQSPAILSVSPGERATLSCRASQSVTRNLAWYQQKPGQAPRLLIYGASTRATNIPARFSGSGFGTEFTLIISSLQSEDFAVYYCQQYSNWPLYTFGQGTKLEIK
B3: BD56-1827 (protein)
chain 1: QVQLVESGGGVVQPGRSLRLSCAVSGFTFSNYGMHWVRQAPGKGLEWVAVTWYEGNKNYYVDSVKGRFTISRDTSKNTLLLQMNSLRVEDTAVYYCARDRLEFWYGDYSYGMDVWGQGTTVTVSS
chain 2: QSVLTQPASVSAAPGQKVTISCSGSSSNVGSNYVSWYQHLPGTAPNLLIYDNNQRPSGIPDRFSGSKSGTSAILGITGLQTGDEADYYCGTWDSSLSSVVFGGGTKLTVL
B4: BD56-1800 (protein)
chain 1: EVQLVESGGGLVQPGRSLTLSCAASGFTYDEYAMHWVRQAPGKGLEWVSGITWNSGTIDYADSVKGRFIISRDNAKNSLYLHMRSLRAEDTALYYCAKDRGRDGDYGLDVWGHGTSVTVSS
chain 2: SYVLTQAPSVSVAPGKTAKIFCGANNSGGKGVHWYQLKPGQAPILVVYDDSDRPSGIPERFSGSNSDNTATLTISRVEAGDEADYYCQVWDSSGDHPVFGGGTKLTVL
B5: BD56-1825 (protein)
chain 1: QVTLRESGPALVKPTQTLTLTCTFSGFSLSTRGMCVAWIRQPPGKALEWLARIDWDDDRYYRTSLKTRLTVSKDTSKNQVVLTMTNMDPADTATYYCARTRVAYGDFGEFDPWGQGTLVTVSS
chain 2: DIQMTQSPSSLSASVGDRVTITCRPSENITTYLNWYQQKPGKAPKLLIYAASSLQNGVPSRFSGSGSATDFTLTISSLQPDDFATYYCQQSYSTPQTFGQGTKVETK
B6: BD56-1826 (protein)
chain 1: ELHLVESGGGLVQPGRSLRLSCGASGFSFDDYGMHWVRQPPGKGLEWVSGITWNSGVIGYADSVKGRFIISRDNAKNSLYLQMRNLRTEDTALYFCAKDTRRSSDYRLDEQYFFDYWGQGTLVTVSS
chain 2: SYVLTQPPSVSVAPGETARITCGGYNIGSKSVHWYQQRPGQAPVLVIYYDSDRPSGIPERFSGSNSANTATLTISRVEAGDEADYYCQVWDSNSDQVAFGGGTKLTVL
B7: BD56-1810 (protein)
chain 1: QVQLVESGGGVVQPGRSLKLSCAASGFTFNNFGMHWVRQAPGKGLQWVAVISSDGSYKGYEDSVKGRFTLSRDNSKNMVYLLMNSLRDEDTAVYYCAKEEGEMTTHFDYWGQGTLVTVSS
chain 2: DIQVTQSPTSLSASVGDRVTITCRASQSISRHLNWYQQRPGKAPRLLIYAASSLQSGVPSRFSGSGSGTDFTLTISSLQPEDFATYYCQQNYETPPWTFGQGTRVEIK
B8: BD56-1824 (protein)
chain 1: EVQLVESGGGLVQPGRSLRLSCAASGFVFDDYAIHWVRQAPGKGLEWVSGVTWNSGTIGYADSVKGRFIISRDNAKNTLYLQMNRLRAEDTALYYCAKDQSGDGERAFDYWGQGTLVTVSS
chain 2: SYVLTQPPSVSVAPGQTARMTCGGNNIGSKSVHWYQQKPGQAPVLVVYDDSDRPSGIPERFSGSNSGNTATLTISRVEAGDEADYYCQVWNSDTDHVVFGGGTKLTVL
B9: BD56-1795 (protein)
chain 1: QVQLVQSGAEVKKPGSSVKVSCKASGGTFSSSSITWVRQAPGQGLEWMGRVIPILNIPNYAQKFQGRLRIIADKSTGTAYLDLSSLRSEDTAFYYCAREPIEYNYDTSGLHSEYFQDWGQGTLVTVSS
chain 2: QSVLTQTPSVSGAPGQRVTISCTGSNSNIGAGYDVHWYQQLPGTAPKLLIFGNNNRPSGVPDRFSGSKSGTSASLAITGLQADDEADYYCQSYDSSLSGSVFGGGTKLTVL
B10: BD56-1808 (protein)
chain 1: QVQLVQSGAEVKKPGSSVKVSCKASGGTFSSYTFTWVRQAPGQGLEWMGSVIPILNIPNYAQNFQGRVTITADKSTSTAYMELSSLRSEDTAFYYCALARGYSGTGSSYCFDYWGRGTLLTVSS
chain 2: HSVLTQPPSVSGAPGQRVTISCTGTNSNIGAGYDVHWYQQLPGTAPKLLIYINNNRPSGVPDRFSGAKSGTSASLAITGLQAEDEADYYCQSYDSSLSGSVFGGGTKLTVL
B11: BD56-1807 (protein)
chain 1: QVQLVQSGAEVKKPGSSVKVSCKASGGTFSSNSITWVRQAPGEGLEWMGGIIPILGVANYALKLQGRVTITVDRSTRTAYMELRSLRSDDTAVYYCAEEVGYSGYGATAWFDPWGQGTLVTVSS
chain 2: QSLLTQSPSVSGAPGQRVTISCTGSNSNIGAGYDVHWYQQLPGTAPKLLISANTNRPSGVPDRFSGSKSGTSASLAITGLQAEDEADYYCQSYDSSLSGPVFGRGTKLTVL
B12: BD56-1805 (protein)
chain 1: QVQLVQSGAEVKKPGSSVKVSCKASGGTFSSYGISWVRQAPGQGLEWMGGIIPILGIANYAEKFQGRVTITADKSTGTADMELSSLRSEDTAVYYCAREWPHCRSTSCYGWWGQGTLVTVSS
chain 2: QSVLTQPPSVSGAPGQRVTISCTGTNSNIGAGYDVHWYQQLPGTAPKLLIFDNNNRPSGVPDRFSGSKSGTSASLAITGLQAEDEADYYCQSYDSSLIGSVFGGGTKLTVL

target: SARS-CoV-2 Omicron BA.1 spike pseudovirus; assay: pseudovirus neutralization IC50; higher = weaker neutralization
Procedure: (§1)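 Single-round VSV luciferase pseudovirus mixed with antibody dilutions for 1 h and put on Huh-7 cells for about a day; IC50 from the dose curve.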

Row | Binder | pseudovirus neutralization IC50
1 | B1 | 0.00148 µg/mL
2 | B2 | > 10 µg/mL
3 | B3 | 0.218 µg/mL
4 | B4 | 0.0123 µg/mL
5 | B5 | 0.634 µg/mL
6 | B6 | 0.0349 µg/mL
7 | B7 | > 10 µg/mL
8 | B8 | 0.0182 µg/mL
9 | B9 | 0.0737 µg/mL
10 | B10 | > 10 µg/mL
11 | B11 | 0.0734 µg/mL
12 | B12 | 0.0349 µg/mL

target: SARS-CoV-2 Omicron BA.2 spike pseudovirus; assay: as above
Procedure: as §1

Row | Binder | pseudovirus neutralization IC50
13 | B1 | 0.00131 µg/mL
14 | B2 | > 10 µg/mL
15 | B3 | 0.0332 µg/mL
16 | B4 | 0.0321 µg/mL
17 | B5 | 0.00137 µg/mL
18 | B6 | 0.0147 µg/mL
19 | B7 | > 10 µg/mL
20 | B8 | 0.0242 µg/mL
21 | B9 | 0.0364 µg/mL
22 | B10 | > 10 µg/mL
23 | B11 | 0.0579 µg/mL
24 | B12 | 0.0847 µg/mL

target: SARS-CoV-2 Omicron BA.2.75 spike pseudovirus; assay: as above
Procedure: as §1

Row | Binder | pseudovirus neutralization IC50
25 | B1 | 0.00147 µg/mL
26 | B2 | > 10 µg/mL
27 | B3 | 0.0536 µg/mL
28 | B4 | 0.00609 µg/mL
29 | B5 | 1.71 µg/mL
30 | B6 | 0.0235 µg/mL
31 | B7 | > 10 µg/mL
32 | B8 | 0.0108 µg/mL
33 | B9 | 0.0698 µg/mL
34 | B10 | 0.992 µg/mL
35 | B11 | 0.0571 µg/mL
36 | B12 | 0.0268 µg/mL

target: SARS-CoV-2 Omicron BA.5 spike pseudovirus; assay: as above
Procedure: as §1

Row | Binder | pseudovirus neutralization IC50
37 | B1 | 0.0214 µg/mL
38 | B2 | > 10 µg/mL
39 | B3 | > 10 µg/mL
40 | B4 | 0.0622 µg/mL
41 | B5 | 0.000563 µg/mL
42 | B6 | 0.198 µg/mL
43 | B7 | > 10 µg/mL
44 | B8 | > 10 µg/mL
45 | B9 | > 10 µg/mL
46 | B10 | > 10 µg/mL
47 | B11 | 1.8 µg/mL
48 | B12 | > 10 µg/mL

target: SARS-CoV-2 Omicron BQ.1.1 spike pseudovirus; assay: as above
Procedure: as §1

Row | Binder | pseudovirus neutralization IC50
49 | B1 | 0.144 µg/mL
50 | B2 | > 10 µg/mL
51 | B3 | > 10 µg/mL
52 | B4 | > 10 µg/mL
53 | B5 | > 10 µg/mL
54 | B6 | > 10 µg/mL
55 | B7 | > 10 µg/mL
56 | B8 | > 10 µg/mL
57 | B9 | > 10 µg/mL
58 | B10 | > 10 µg/mL
59 | B11 | 1.62 µg/mL
60 | B12 | > 10 µg/mL

target: SARS-CoV-2 Omicron XBB spike pseudovirus; assay: as above
Procedure: as §1

Row | Binder | pseudovirus neutralization IC50
61 | B1 | > 10 µg/mL
62 | B2 | > 10 µg/mL
63 | B3 | > 10 µg/mL
64 | B4 | > 10 µg/mL
65 | B5 | > 10 µg/mL
66 | B6 | > 10 µg/mL
67 | B7 | > 10 µg/mL
68 | B8 | > 10 µg/mL
69 | B9 | > 10 µg/mL
70 | B10 | > 10 µg/mL
71 | B11 | 1.41 µg/mL
72 | B12 | > 10 µg/mL

target: SARS-CoV-2 early D614G spike pseudovirus; assay: as above
Procedure: as §1

Row | Binder | pseudovirus neutralization IC50
73 | B1 | 0.00217 µg/mL
74 | B2 | 0.243 µg/mL
75 | B3 | 0.0361 µg/mL
76 | B4 | 0.0146 µg/mL
77 | B5 | 0.0353 µg/mL
78 | B6 | 0.00479 µg/mL
79 | B7 | 0.472 µg/mL
80 | B8 | 0.00421 µg/mL
81 | B9 | 0.432 µg/mL
82 | B10 | 0.652 µg/mL
83 | B11 | 0.303 µg/mL
84 | B12 | 0.131 µg/mL
